In patent publication US20020142940A1, “Method of inhibiting viral infection using HMG-COA reductase inhibitors and isoprenylation inhibitors” (priority 2000, published 2002):

Experiment: Serum cholesterol levels in RSV-infected mice (ACE7 Cholesterol Reagent)
Type: in vivo
Settings: 1 mg/day lovastatin begun 3 days before to 3 days after infection (up to 11 days); serum 8 days post RSV infection

## CC[C@H](C)C(=O)O[C@H]1C[C@@H](C)C=C2C=C[C@H](C)[C@H](CC[C@@H]3C[C@@H](O)CC(=O)O3)[C@H]21 [lovastatin]
  serum cholesterol levels: not significant differences; also recorded: no significant change

Entries after “also recorded” stand apart in the source; their conditions may differ.
